PubChem BioAssay AID624099 – ICCB-Longwood – 2012
In all, the deposit lists about 21,000 reagents; below is a random part of them. 497 of them (2.4%) count as active. 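Higher z means weaker E2 silencing; only reporter increases were scored, and knock-downs that hurt cell survival may mask genuine repressor factors.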

Test: 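Knock-downs relieving repression by E2 of an HPV18 LCR luciferase reporter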 (primary screen)
Cells: human C33A cervical carcinoma cells (HPV-negative) stably expressing BPV1 E2 and an HPV18 LCR luciferase reporter
Reagents: siRNA pool against human genes, 40 nM
Timing: 72 h
Detection: 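Per-well luciferase luminescence, z-scored on each plate against the plate mean and SD with control wells left out, then averaged across three replicate plates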
Reading the numbers: mean z-score and z-score: higher = stronger reporter signal, weaker E2 silencing
Active means: 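Hit if mean z-score reaches 2 and two or more of three replicate z-scores also reach 2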

| gene | mean z-score | z-score, replicate A | z-score, replicate B | z-score, replicate C | outcome |
| --- | --- | --- | --- | --- | --- |
| KTI12 (GeneID 112970) | 0.36 | 0.2 | 0.37 | 0.52 | inactive |
| TBP (GeneID 6908) | 2.01 | 1.64 | 2.01 | 2.37 | active |
| RREB1 (GeneID 6239) | -1.39 | -1.68 | -1.4 | -1.1 | inactive |
| LOC387816 (retired record) (GeneID 387816) | -0.91 | -0.64 | -1.13 | -0.96 | inactive |
| CCNE1 (GeneID 898) | 2.12 | 2.17 | 2.03 | 2.14 | active |
| KDM1A (GeneID 23028) | -0.89 | -0.67 | -0.78 | -1.21 | inactive |
| TFAP2A (GeneID 7020) | -0.23 | -0.47 | -0.36 | 0.14 | inactive |
| PTPN14 (GeneID 5784) | -0.93 | -0.88 | -1.1 | -0.81 | inactive |
| ZBED11 (GeneID 285550) | 1.88 | 1.81 | 1.98 | 1.87 | inactive |
| CXCR2 (GeneID 3579) | 1.2 | 1.51 | 0.96 | 1.14 | inactive |
| NT5DC2 (GeneID 64943) | -0.12 | -0.35 | 0.07 | -0.08 | inactive |
| COPS4 (GeneID 51138) | -0.06 | 0 | 0 | -0.18 | inactive |
| HSF5 (GeneID 124535) | 1.09 | 0.67 | 1.21 | 1.38 | inactive |
| STAB2 (GeneID 55576) | 0.83 | 0.75 | 0.84 | 0.9 | inactive |
| SPOPL (GeneID 339745) | 0.55 | 0.51 | 0.66 | 0.49 | inactive |
| CTCFL (GeneID 140690) | 0.55 | 0.45 | 0.83 | 0.37 | inactive |
| MED29 (GeneID 55588) | 0.16 | -0.06 | 0.08 | 0.45 | inactive |
| CCDC144BP (GeneID 284047) | -1.38 | -1.54 | -1.44 | -1.17 | inactive |
| NTSR2 (GeneID 23620) | -0.27 | -0.12 | -0.48 | -0.22 | inactive |
| CLEC1A (GeneID 51267) | -0.55 | -0.8 | -0.38 | -0.46 | inactive |
| LOC730007 (retired record) (GeneID 730007) | -0.98 | -1.07 | -1.1 | -0.77 | inactive |
| HSD17B10 (GeneID 3028) | 0.41 | 0.24 | 0.58 | 0.42 | inactive |
| CHMP5 (GeneID 51510) | -0.28 | 0.1 | -0.59 | -0.34 | inactive |
| KIAA1755 (GeneID 85449) | 0.15 | 0.29 | 0.25 | -0.1 | inactive |
| UBFD1 (GeneID 56061) | -0.64 | -0.64 | -0.74 | -0.55 | inactive |
| C19orf73 (GeneID 55150) | 0.82 | 0.75 | 0.59 | 1.12 | inactive |
| CNNM3 (GeneID 26505) | 2.26 | 2.11 | 2.52 | 2.16 | active |
| LOC285544 (retired record) (GeneID 285544) | -0.03 | -0.07 | 0.05 | -0.06 | inactive |
| ZKSCAN5 (GeneID 23660) | 0.85 | 0.63 | 1.06 | 0.88 | inactive |
| PCDH7 (GeneID 5099) | -1.32 | -1.04 | -1.52 | -1.41 | inactive |
| KCTD20 (GeneID 222658) | -0.34 | -0.39 | -0.28 | -0.16 | inactive |
| GAMTP1 (GeneID 391491) | 0.09 | 0.35 | 0 | -0.07 | inactive |
| EDRF1-DT (GeneID 399821) | 3.3 | 3.56 | 3.51 | 2.83 | active |
| AMHR2 (GeneID 269) | 0.1 | 0.03 | -0.03 | 0.3 | inactive |
| LOC401945 (retired record) (GeneID 401945) | -0.22 | 0.01 | -0.15 | -0.53 | inactive |
| C1orf141 (GeneID 400757) | 0.19 | 0.44 | 0.06 | 0.06 | inactive |
| HMGN3 (GeneID 9324) | 0 | -0.23 | 0.08 | 0.14 | inactive |
| NRN1 (GeneID 51299) | -0.42 | -0.37 | -0.5 | -0.39 | inactive |
| MCTS1 (GeneID 28985) | -0.19 | -0.13 | -0.23 | -0.2 | inactive |

Part of the list above, reformatted:
{"gene":"PTPN14 (GeneID 5784)","mean z-score":-0.93,"z-score, replicate A":-0.88,"z-score, replicate B":-1.1,"z-score, replicate C":-0.81,"outcome":"inactive"}
{"gene":"ZBED11 (GeneID 285550)","mean z-score":1.88,"z-score, replicate A":1.81,"z-score, replicate B":1.98,"z-score, replicate C":1.87,"outcome":"inactive"}
{"gene":"CXCR2 (GeneID 3579)","mean z-score":1.2,"z-score, replicate A":1.51,"z-score, replicate B":0.96,"z-score, replicate C":1.14,"outcome":"inactive"}
{"gene":"NT5DC2 (GeneID 64943)","mean z-score":-0.12,"z-score, replicate A":-0.35,"z-score, replicate B":0.07,"z-score, replicate C":-0.08,"outcome":"inactive"}
{"gene":"COPS4 (GeneID 51138)","mean z-score":-0.06,"z-score, replicate A":0,"z-score, replicate B":0,"z-score, replicate C":-0.18,"outcome":"inactive"}
